Laboratory results as given in ChEMBL document CHEMBL3045109, “Inhibitory effect of bionic fungicide 2-allylphenol on Botrytis cinerea (Pers. ex Fr.) in vitro” (Pest Manag Sci, 2009).

Legend:
Botrytis cinerea [1] = experiment: Inhibition of respiratory activity in Botryotinia fuckeliana mycelium assessed as decrease in rate of oxygen consumption at 1 mM by Clark-type oxygen electrode recording analysis in presence of glucose (reference value: 0%)
Botrytis cinerea [2] = experiment: Inhibition of respiratory activity in Botryotinia fuckeliana mycelium assessed as decrease in rate of oxygen consumption at 1 mM by Clark-type oxygen electrode recording analysis in presence of glucose and 2 mM mitochondrial alternative oxidase inhibitor, SHAM (reference value: 0%)
Botrytis cinerea [3] = experiment: Inhibition of respiratory activity in Botryotinia fuckeliana mycelium assessed as decrease in rate of oxygen consumption at 1 mM by Clark-type oxygen electrode recording analysis in presence of succinate (reference value: 0%)
Botrytis cinerea [4] = experiment: Inhibition of respiratory activity in Botryotinia fuckeliana mycelium assessed as decrease in rate of oxygen consumption at 1 mM by Clark-type oxygen electrode recording analysis in presence of succinate and 2 mM mitochondrial alternative oxidase inhibitor, SHAM (reference value: 0%)

In the case of `[C-]#N.[K+]`, the inhibition (Botrytis cinerea [1]) is reported as 35%, the inhibition (Botrytis cinerea [2]) is reported as 100% and the inhibition (Botrytis cinerea [3]) is reported as 46%. For the same molecule, the inhibition (Botrytis cinerea [4]) was 100%.
